# Target: 5-HT-2 receptor (Rattus norvegicus, UniProt P14842)
# Amino acid sequences for entries named in this document (tags omitted).
# UniProt P14842, whole entry: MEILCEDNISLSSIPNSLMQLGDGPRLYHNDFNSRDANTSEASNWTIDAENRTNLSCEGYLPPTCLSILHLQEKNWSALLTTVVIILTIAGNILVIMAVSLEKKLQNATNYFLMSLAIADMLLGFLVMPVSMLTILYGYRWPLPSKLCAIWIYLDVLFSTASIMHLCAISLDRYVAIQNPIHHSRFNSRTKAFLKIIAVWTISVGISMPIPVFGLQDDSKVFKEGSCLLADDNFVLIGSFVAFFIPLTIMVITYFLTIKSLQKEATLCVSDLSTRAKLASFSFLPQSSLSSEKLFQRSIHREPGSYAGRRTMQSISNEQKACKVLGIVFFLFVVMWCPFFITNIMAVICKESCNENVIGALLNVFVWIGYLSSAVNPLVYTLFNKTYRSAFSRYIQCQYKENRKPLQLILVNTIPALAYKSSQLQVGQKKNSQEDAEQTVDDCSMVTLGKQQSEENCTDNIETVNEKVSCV
# Conditions: rat frontal cortex
smiles,measurement,value
Cc1cc2c(s1)Nc1ccccc1N=C2N1CCN(C)CC1,concentration displacing H-spiperone at the 5-HT-2 receptor,low nanomolar concentrations

# Source: patent publication USRE40033E1, “Process for preparing 2-methyl-thieno-benzodiazepine” (Eli Lilly and Company, priority 1991, dated 2008)
